Results taken from US9029526B2, “Nucleic acid molecules, polypeptides, antibodies and compositions for treating and detecting influenza virus infection” (dated 2015).

Test system: A/Texas/1/77 (H3N2)
Assay: Inhibition of mouse infection, lung virus titer, A/Texas/1/77
Details: intra-nasal

With CCOC(=O)C1=C[C@@H](OC(CC)CC)[C@H](NC(C)=O)[C@@H](N)C1 the “Protection (%)” value (administered once with the virus) was 76.03%, the “Δlog EID50” value (administered once, together with the virus, Oseltamivir 20 μg/mouse) was 0.62 log EID50 and the Fold reduction (virus burden, administered once with the virus) was 4.17 fold.
